Test results: PubChem BioAssay AID602481 (Broad Institute, 2012)
The list shows a part of the results, in another mix than the full data. Active and inactive are the calls of the source. No stated cut-off is given here; in the data, active means inhibition above about 40%; inconclusive means no clear call, values can overlap the other calls; inactive means below that.

The compounds below were run on 7,8-diaminopelargonic acid synthase BioA (Mycobacterium tuberculosis) (assay: M. tuberculosis BioA enzyme inhibitors, primary screen, biochemical, plate reader, single point, HTS (AID 602481)). Conditions: purified M. tuberculosis BioA enzyme, at 9.99 µM, active compounds read high.
In the case of `c1ccc(CN2CCC(Nc3ccccc3)CC2)cc1`, the inhibition is reported as inactive: 1.82%. In the case of `CCCN1CCC(Nc2cc(OC)cc(OC)c2)CC1`, the inhibition is reported as inactive: -6.91%. `O=c1[nH]c2ccccc2n1C1CCN(C(c2ccccc2)c2nnnn2C2CCCC2)CC1` (centres undefined) was tested, and the inhibition was inactive: -2.01%. `CN(C)C1(CNC(=O)c2cccc(C#N)c2)CCCCC1` was tested, and the inhibition was inactive: -2.32%. With `CC(C)(C)n1nnnc1C(c1cccc2ccccc12)N1CCC(n2c(=O)[nH]c3ccccc32)CC1` (centres undefined) the inhibition was inactive: -2.41%. In the case of `CC(C)(C)OC(=O)N1CCC(N(C(=O)c2ccccc2)c2ccc(Cl)cc2)CC1`, the inhibition is reported as inactive: -2.96%. `N#Cc1ccc(C(=O)NCC2(N3CCCCC3)CCCCC2)cc1` was tested, and the inhibition was inactive: -0.881%. `N/C(=N\O)c1c(N)no[n+]1[O-]` was tested, and the inhibition was inactive: 0.544%. In the case of `CCOC(=O)N1CCC(Nc2ccc(C)cc2)CC1`, the inhibition is reported as inactive: -0.833%. `COc1cccc(C(c2nnnn2C(C)(C)C)N2CCC(n3c(=O)[nH]c4ccccc43)CC2)c1OC` (centres undefined) was tested, and the inhibition was inactive: 0.0885%. In the case of `CCCCn1nnnc1C(c1cccc(OC)c1OC)N1CCC(n2c(=O)[nH]c3ccccc32)CC1` (centres undefined), the inhibition is reported as inactive: 1.5%. With `O=c1[nH]c2ccccc2n1C1CCN(C(c2cccs2)c2nnnn2C2CCCC2)CC1` (centres undefined) the inhibition was inactive: 0.23%. With `O=C(NCC1(N2CCOCC2)CCCCC1)c1cc(Br)ccc1Cl` the inhibition was inactive: -1.78%. In the case of `CCCCn1nnnc1C(c1ccccc1)N1CCC(n2c(=O)[nH]c3ccccc32)CC1` (centres undefined), the inhibition is reported as inactive: 1.68%. With `COc1cc(C(=O)NCC2(N3CCOCC3)CCCCC2)cc(OC)c1C` the inhibition was inactive: -0.621%. `O=c1[nH]c2ccccc2n1C1CCN(C(c2ccnc3ccccc23)c2nnnn2C2CCCC2)CC1` (centres undefined) was tested, and the inhibition was inactive: -1.18%. In the case of `O=c1[nH]c2ccccc2n1C1CCN(C(c2cccs2)c2nnnn2C2CCCCC2)CC1` (centres undefined), the inhibition is reported as inactive: -1.71%. In the case of `CCC(CO)(C(=O)OC1CN2CCC1CC2)c1ccccc1` (centres undefined), the inhibition is reported as inactive: -0.585%. With `COc1cccc(C(c2nnnn2C2CCCC2)N2CCC(n3c(=O)[nH]c4ccccc43)CC2)c1OC` (centres undefined) the inhibition was inactive: 3.93%. For `COc1cc(OC)cc(C(=O)NCC2(N3CCOCC3)CCCCC2)c1`, the inhibition was inactive: 0.239%. For `COc1cccc(C(=O)N(c2cc(C)cc(C)c2)C2CCN(C(=O)OC(C)(C)C)CC2)c1`, the inhibition was inactive: -1.43%. `CN1CCC(Nc2ccc(Cl)cc2)CC1` was tested, and the inhibition was inactive: 0.206%. In the case of `CCOc1ncccc1C(=O)NCC1(N2CCOCC2)CCCCC1`, the inhibition is reported as inactive: 1.16%. With `CN1CCC(Nc2ccc(F)c(Cl)c2)CC1` the inhibition was inactive: -1.18%. With `O=c1[nH]c2ccccc2n1C1CCN(C(c2cc3ccccc3o2)c2nnnn2C2CCCC2)CC1` (centres undefined) the inhibition was inactive: -2.89%. In the case of `O=C(O)C1(Nc2ccccc2)CCN(Cc2ccccc2)CC1`, the inhibition is reported as inactive: 0.0605%. In the case of `Cc1ccccc1NC1(C#N)CCN(Cc2ccccc2)CC1`, the inhibition is reported as inactive: -1.1%. With `COc1ccc(C(c2nnnn2C2CCCCC2)N2CCC(n3c(=O)[nH]c4ccccc43)CC2)cc1` (centres undefined) the inhibition was inactive: 0.349%. `CC(C)(C)n1nnnc1C(c1ccnc2ccccc12)N1CCC(n2c(=O)[nH]c3ccccc32)CC1` (centres undefined) was tested, and the inhibition was inactive: 7.03%. For `O=C(NCC1(N2CCCCC2)CCCCC1)c1ccco1`, the inhibition was inactive: -0.165%. In the case of `Cn1c(=O)[nH]cc(N(CCCl)CCCl)c1=O`, the inhibition is reported as inactive: 8.88%. For `COc1cc(OC)cc(C(=O)NCC2(N3CCCCC3)CCCCC2)c1`, the inhibition was inactive: -0.181%. `O=c1[nH]c2ccccc2n1C1CCN(C(c2ccnc3ccccc23)c2nnnn2C2CCCCC2)CC1` (centres undefined) was tested, and the inhibition was inactive: -1.8%. In the case of `COc1cccc(C(c2nnnn2C2CCCCC2)N2CCC(n3c(=O)[nH]c4ccccc43)CC2)c1OC` (centres undefined), the inhibition is reported as inactive: -1.11%. For `CC(=O)N(c1ccccc1)C1CCNCC1`, the inhibition was inactive: 1.04%. In the case of `CCC(c1nnnn1C1CCCCC1)N1CCC(n2c(=O)[nH]c3ccccc32)CC1` (centres undefined), the inhibition is reported as inactive: -0.3%. In the case of `Cc1ccc(NC2(C#N)CCN(Cc3ccccc3)CC2)cc1`, the inhibition is reported as inactive: -0.063%. For `Cc1ccc(C(=O)NCC2(N3CCCCC3)CCCCC2)o1`, the inhibition was inactive: -0.9%. `Fc1ccccc1NC1CCN(Cc2ccccc2)CC1` was tested, and the inhibition was inactive: -0.366%. For `O=c1[nH]c2ccccc2n1C1CCN(C(c2ccccc2)c2nnnn2C2CCCCC2)CC1` (centres undefined), the inhibition was inactive: 0.111%. With `O=c1[nH]c2ccccc2n1C1CCN(C(c2cccc3ccccc23)c2nnnn2C2CCCC2)CC1` (centres undefined) the inhibition was inactive: -0.439%. For `CCOC(=O)N1CCC(Nc2cccc(C)c2)CC1`, the inhibition was inactive: 1.48%. With `COc1cc(C(=O)NCC2(N(C)C)CCCCC2)ccc1OC(F)F` the inhibition was inactive: -1.46%. In the case of `CC(C)(C)n1nnnc1C(c1ccccc1)N1CCC(n2c(=O)[nH]c3ccccc32)CC1` (centres undefined), the inhibition is reported as inactive: -1.01%. `O=C1CCN(Cc2ccccc2)CC1` was tested, and the inhibition was inactive: 0.404%. `O=P1(N(CCCl)CCCl)SCCCS1` was tested, and the inhibition was inactive: 0.44%. With `CCCCn1nnnc1C(c1cc2ccccc2o1)N1CCC(n2c(=O)[nH]c3ccccc32)CC1` (centres undefined) the inhibition was inactive: -2.17%. `CCCCOc1ccc(C(=O)NCC2(N3CCOCC3)CCCCC2)cc1` was tested, and the inhibition was inactive: -0.883%. For `O=C(NCC1(N2CCCCC2)CCCCC1)c1ccc(F)cc1`, the inhibition was inactive: 0.948%. With `COc1ccc(NC2CCN(CCc3ccccc3)CC2)c(OC)c1` the inhibition was inactive: 2.12%. With `CCOC(=O)N1CCC(Nc2ccc(F)cc2)CC1` the inhibition was inactive: 0.467%. `O=C(NCC1(N2CCCCC2)CCCCC1)c1ccc(Cl)nc1` was tested, and the inhibition was inactive: -2.05%. With `O=c1[nH]c2ccccc2n1C1CCN(C(c2ccccc2OC(F)(F)F)c2nnnn2C2CCCCC2)CC1` (centres undefined) the inhibition was inactive: -0.237%. With `Cc1cc(C)cc(N(C(=O)c2ccccc2)C2CCN(C(=O)OC(C)(C)C)CC2)c1` the inhibition was inactive: 1.56%. `CCOC(=O)N1CCC(Nc2ccc(OC)cc2)CC1` was tested, and the inhibition was inactive: -1.55%. For `CCCCn1nnnc1C(c1ccc(OC)cc1)N1CCC(n2c(=O)[nH]c3ccccc32)CC1` (centres undefined), the inhibition was inactive: -1.98%. In the case of `O=C(NCC1(N2CCCCC2)CCCCC1)c1ccc(Cl)s1`, the inhibition is reported as inactive: -1.2%. In the case of `O=C(OC1CN2CCC1CC2)C1c2ccccc2Oc2ccccc21` (centres undefined), the inhibition is reported as inactive: -1.78%. In the case of `O=c1[nH]c2ccccc2n1C1CCN(C(c2cc3ccccc3o2)c2nnnn2C2CCCCC2)CC1` (centres undefined), the inhibition is reported as inactive: -1.13%.
